This assay concerns the target […] peptide derived from a matrix protein of the influenzavirus, presented on cells of the HLA (influenzavirus).

As for “T cells from an HLA-A0201-positive healthy proband tested against the […] peptide (cells without a defined receptor)”, the IFN-gamma ELISpot, specific cells/1,000,000 cells (specific cells/1,000,000) was 1170.

The values are drawn from patent US20040265803A1, “Genes and their genetic products pertinent to microsatellite instable (msi+) tumours” (priority 2000, published 2004).
